Results of unrelated studies side by side (data: NIAID ChemDB).

All rows: cytotoxicity tests; endpoint: CC50

Two numbers with a dash give a range or band. Lines come from different laboratories, so protocols vary. Blank or dashed fields: not listed here. CCn is the concentration with n% toxicity to the cells.

| SMILES | cells | method | result |
|---|---|---|---|
| CC(=O)C[C@H]1C[C@H]2[C@H]([C@@H]3c4[nH]c5ccccc5c4CCN13)[C@H](O)C13CC/C=C\CCCCN1CC21CC/C=C\CCCNC13 | A-594 | - | 2.5 µg/mL |
| COc1cc2c(cc1OC)C1(CC=CCC1)N(C(C)=O)CC2 | BJ | - | <7.5 µM |
| Oc1ccc(-c2nc(SCC3CC3)n[nH]2)cc1 | Panc-1 | MTT | >100 µg/mL |
| C=Cc1cn([C@@H]2O[C@H](CO)[C@@H](O)[C@@H]2O)c(=O)[nH]c1=O | HELF | - | >1000 µM |
| O=c1[nH]c(=O)n([C@H]2C[C@H](O)[C@@H](COP3(=O)OCc4cccc(-c5ccccc5)c4O3)O2)cc1/C=C/Br | HELF | - | 55.2 µg/mL |
| COc1ccc(Br)cc1/C=C/C(=O)c1c(O)cc(/C=C/c2ccc(N(C)C)cc2)oc1=O | HCT116 | MTT | >10 µM |
| Cc1cn([C@H]2C[C@H](N=[N+]=[N-])[C@@H](COP(=O)([O-])OP(=O)([O-])OCC3O[C@@H](n4cc(C)c(=O)[nH]c4=S)C[C@@H]3F)O2)c(=O)[nH]c1=O | CEM-T4 | MTT | >100 µM |
| Cc1cccc(C)c1C(=O)N1CCC(N2CC[C@H](N(Cc3ccccc3)C(=O)C3CC3)C2)CC1 | MIP34.10 | - | 0.008 µM |
| Cc1cc(O)c(C(=O)/C=C/C=C/c2ccc(N(C)C)cc2)c(=O)o1 | HCT116 | MTT | >10 µM |
| CO/N=C/c1ccc(OCCC2CCN(c3ccc(C)nn3)CC2)cc1 | MRC-5 | neutral red | >0.1 µg/mL |
| Cc1cn([C@H]2C[C@H](N=[N+]=[N-])C(COC(=O)COC[C@H]3O[C@@H](O[C@@H]4OC[C@@H](O[C@H]5[C@@H](OS(=O)(=O)[O-])[C@@H](OS(=O)(=O)[O-])[C@H](O)O[C@@H]5CO)[C@H](O)[C@H]4O)[C@H](O)[C@@H](O)[C@@H]3O[C@@H]3O[C@H](COS(=O)(=O)[O-])C[C@H](O)[C@H]3OS(=O)(=O)[O-])O2)c(=O)[nH]c1=O | P4R5 | MTT | >100 µg/mL |
| CC(Nc1nc(NCC(F)(F)F)c2nc(-c3ccc(F)cc3)cnc2n1)c1ccc(S(N)(=O)=O)cc1 | Huh7 | ATP | <10 µM |
| CO[C@H]1C[C@H](n2cc(/C=C/Br)c(=O)[nH]c2=O)O[C@@H]1COP1(=O)OCc2cccc(C)c2O1 | HELF | - | 66.5 µg/mL |
| O=C(N/N=C/c1ccc(Oc2no[n+]([O-])c2-c2ccccc2)cc1)c1ccncc1 | J774A.1 | resazurin | 409 µM |
| CN1CCN(C(=O)c2ccc3nc4ccccc4c(NCCc4c[nH]c5ccccc45)c3c2)CC1 | BHK | - | 159 µM |
| CN(C)c1ccc(/C=C/C(=O)c2c(O)cc(/C=C/c3ccc(N(C)C)cc3)oc2=O)cc1 | HCT116 | MTT | >10 µM |
| COC(=O)[C@@H](NC(=O)[C@@H](NC(=O)CNC[C@H](O)[C@H](Cc1ccccc1)NC(=O)[C@H](C)NC(=O)[C@H](C)N)C(C)C)C(C)C | MOLT-4 | - | >100 µM |
| CO/N=C/c1ccc(OCCC2CCN(c3ccc(Cl)nn3)CC2)cc1 | MRC-5 | neutral red | >0.1 µg/mL |
| CCCCCCCCCCCCCC(=O)OC[C@@H]1C=C[C@H](n2cc(C)c(=O)[nH]c2=O)O1 | P4R5 | - | >200 µM |
| COc1ccc(-c2cnc3nc(N)nc(N4CCN(C(=O)Oc5ccc(Cl)cc5)CC4)c3n2)cc1OC | Huh7 | ATP | <10 µM |
| Cn1cc(C(=O)O)c(=O)c2cc(F)c(N3CC=C(c4ccccc4)CC3)c(C(F)(F)F)c21 | MOLT-4 | - | 3.9 µM |
| CCN(CC)C(=O)c1ccc2nc3ccccc3c(NCCc3c[nH]c4ccccc34)c2c1 | BHK | - | 125 µM |
| Nc1ncnc2c1ncn2C1C[C@H]2C[C@@H]1[C@H]1CSC[C@@H]21 | Huh | - | 119 µM |
| Cc1cn([C@H]2C=C[C@@H](COC(=O)CCCCCCCCCCCN=[N+]=[N-])O2)c(=O)[nH]c1=O | P4R5 | - | >200 µM |
| Cc1cc(O)c(C(=O)/C=C/C=C2/N(C)c3ccccc3C2(C)C)c(=O)o1 | HCT116 | MTT | >10 µM |
| COc1ccc(-c2cnc3nc(N)nc(N4CCN(C(=O)N(C)c5ccccc5)CC4)c3n2)cc1OC | Huh7 | ATP | <10 µM |
| FC(F)(F)c1cc(-c2ccc3c(NCCCNCc4ccco4)ccnc3c2)cc(C(F)(F)F)c1 | HepG2 | fluorescence | 2.41 µM |
| OCC12C(c3ccccc3)C3(CO)C4N(Cc5ccccc5)C1C1(CO)C(C5C=CC=CC5)C4(CO)C3N(Cc3ccccc3)C21 | EPG85-257P | - | 45.5 µM |
| CC(C)N(Cc1cccc(OCCCCCC(=O)OC(=O)O)c1)C(=O)c1ccc(-c2cccc(C#N)c2)cc1 | BJ | - | >20 µM |
| Cc1nc(Oc2ccc(S(C)(=O)=O)cc2F)ccc1CN1CCC(N2C(=O)N(c3cc(C(N)=O)c(F)cc3F)C[C@H]2c2ccccc2)CC1 | HOS | - | 5.2 nM |
| C=CCCCC(=O)NCC(c1ccc2c(c1)OCO2)C1OCCO1 | BJ | - | <7.5 µM |
| CC(C)Nc1nc2cc(Cl)c(Cl)cc2n1[C@H]1O[C@@H](CO)[C@H](O)[C@@H]1O | HSB-2 | neutral red | >133 µM |
| COc1cccc2ccc(-c3nnc(-c4ccc(C(C)(C)C)cc4)o3)nc12 | TZM-bl | MTT | 43.15 µM |
| O[C@@H]1[C@H](O)[C@H](O)CO[C@H]1n1c(Br)nc2cc(Cl)c(Cl)cc21 | CBL | - | 111.8 µM |
| COc1ccc(F)cc1CNCCCNc1ccnc2cc(CCC(C)C)ccc12 | HepG2 | fluorescence | 0.89 µM |
| COc1cccc2ccc(/C=C/C(=O)Nc3ccc(C)cc3)nc12 | TZM-bl | MTT | 20.6 µM |
| FC(F)(F)c1ccc(Cl)c(-c2nc(=S)[nH][nH]2)c1 | Panc-1 | MTT | >100 µg/mL |
| Cc1nc(Oc2ccc(S(C)(=O)=O)cc2)ccc1CN1CCC(N2C(=O)N(c3cc(C(N)=O)c(F)cc3F)C[C@H]2c2ccccc2)CC1 | HOS | - | 4 nM |
| CCOC(=O)CCCCCOc1cccc(CN(C(=O)c2ccc(-c3ccco3)cc2)C(C)C)c1 | HEK 293 | - | >20 µM |
| Cc1cc(O)c(C(=O)/C=C/c2ccc(N(C)C)s2)c(=O)o1 | HCT116 | MTT | >10 µM |
| Nc1ncnc2c1ncn2C1C[C@H]2C[C@@H]1c1cscc12 | Huh | - | 34 µM |
| COc1cccc2ccc(-c3nnc(-c4cccc(C)c4)o3)nc12 | TZM-bl | MTT | 37.81 µM |
| Clc1ncnc2c1ncn2C1C[C@H]2C[C@@H]1[C@H]1CSC[C@@H]21 | Huh | - | 17 µM |
| COc1ccc(N=Cc2cc3ccccc3nc2Nc2ccc(OC)cc2)cc1 | TZM-bl | MTT | 122 µM |
| Cc1cc(S(C)(=O)=O)ccc1Oc1ccc(CN2CCC(N3C(=O)N(c4cc(C(N)=O)c(F)cc4F)C[C@H]3c3ccccc3)CC2)c(C)n1 | HOS | - | 5.4 nM |
| COc1cccc(CNCCCNc2ccnc3cc(C4CCCCC4)ccc23)c1O | HepG2 | fluorescence | 1.08 µM |
| O=c1[nH]c(=S)n([C@H]2C[C@H](O)[C@@H](CO)O2)cc1Br | RPMI8226 | - | 273 µM |
| OCC1CCC(c2ccc3ncnc(Nc4ccc(C5CCOCC5)cc4)c3c2)O1 | JFH-A4 | - | 18.9 µM |
| Clc1ccc2c(NCCCCNc3nc(Nc4ccccc4)nc(N4CCOCC4)n3)ccnc2c1 | LLC-Pk11 | - | 9.9 µM |
| CCOC(=O)COc1ccc(CO)cc1 | HEK 293 | - | >20 µM |
| c1coc(CNCCCNc2ccnc3cc(-c4cccc5ccccc45)ccc23)c1 | HepG2 | fluorescence | 5.6 µM |
| COc1ccccc1-c1nnc(-c2ccc3cccc(OC)c3n2)o1 | TZM-bl | MTT | 413 µM |
| [N-]=[N+]=N[C@]1(CO)O[C@@H](n2ccc(NCc3ccco3)nc2=O)[C@@H](F)[C@@H]1O | Hep2.2.15 | MTT | <2 µM |
| COP(=O)(c1cc(C)cc(CCC#N)c1)c1c(C(N)=O)[nH]c2ccc(Cl)cc12 | U-937 | MTS | 24.6 µM |
| C#CCSc1n[nH]c(-c2cccc(C(F)(F)F)c2)n1 | Panc-1 | MTT | >100 µg/mL |
| Cc1cn([C@H]2C[C@H](O)[C@@H](CO)O2)c(=S)[nH]c1=O | RPMI8226 | - | 629 µM |
| CCOC(=O)CCCCCOc1cccc(CN(C(=O)c2ccc(-c3cccc(OCC)c3)cc2)C(C)C)c1 | BJ | - | >20 µM |
| CC(=O)Nc1cn([C@H]2C[C@H](OC(C)=O)[C@@H](COC(C)=O)O2)c(=O)[nH]c1=O | GMK | - | 400 µg/mL |
| Cc1cc(Cl)ccc1-c1nc(=S)[nH][nH]1 | Panc-1 | MTT | >100 µg/mL |
| O=c1[nH]c(=O)n([C@H]2C[C@H](O)[C@@H](CO[P@]3(=O)OCc4cccc(-c5ccccc5)c4O3)O2)cc1/C=C/Br | HELF | - | 73.1 µg/mL |
| COC(=O)[C@@H](NC(=O)[C@@H](NC(=O)[C@@H](C)NC[C@H](O)[C@H](Cc1ccccc1)NC(=O)[C@H](C)NC(=O)[C@H](C)NC(=O)OCc1ccccc1)C(C)C)C(C)C | MOLT-4 | - | >100 µM |
| Nc1ccn(C[C@@H](CO)OCP(=O)(O)O)c(=O)n1 | HELF | - | 72 µM |
| Nc1ccn(C[C@@H](CO)OCP(=O)(O)O)c(=O)n1 | CBL | - | >159 µM |
| CCO/N=C/c1ccc(OCC2CCN(c3ccc(Cl)nn3)CC2)cc1 | MRC-5 | visual reading | >1 µg/mL |
| O=[N+]([O-])c1ccc(-c2nc(=S)[nH][nH]2)cc1 | Panc-1 | MTT | >100 µg/mL |
| COc1ccc(-c2cnc3nc(NCc4cccs4)nc(N)c3n2)cc1OC | Huh7 | ATP | 10–20 µM |
| Nc1nc(=S)n([C@@H]2O[C@H](CO)[C@@H](O)[C@@H]2O)cc1I | RPMI8226 | - | 96.2 µM |
| COc1ccc(-c2cnc3nc(N)nc(N4CCN(C(=O)NCCc5cccs5)CC4)c3n2)cc1OC | Huh7 | ATP | <10 µM |
| COc1ccccc1CNC(=O)C1=Cc2ccncc2CC1 | MA-104 | - | <282 µM |
| CC(C)COc1cccc(-c2ccc(C(=O)N(Cc3cccc(OCCCCCC(=O)OC(=O)O)c3)C(C)C)cc2)c1 | BJ | - | >20 µM |
| CCO/N=C/c1ccc(OCCC2CCN(c3ccc(C)nn3)CC2)cc1OC | MRC-5 | neutral red | >0.1 µg/mL |
| O=c1[nH]c(=S)n([C@H]2C[C@H](O)[C@@H](CO)O2)cc1Cl | RPMI8226 | - | 297 µM |
| O=C(NCCc1ccccc1)C1=Cc2ccncc2CC1 | MA-104 | - | 148 µM |
| Cc1cn([C@H]2C[C@H](F)C(COP(=O)([O-])OP(=O)([O-])OC[C@H]3O[C@@H](n4cc(C)c(=S)[nH]c4=O)C[C@@H]3F)O2)c(=O)[nH]c1=S | CEM-T4 | MTT | >100 µM |
| CC(C)c1nc(CN(C)C(=O)N[C@H](C(=O)N[C@@H](Cc2ccccc2)C[C@H](O)[C@H](Cc2ccccc2)NC(=O)OCc2cncs2)C(C)C)cs1 | EPG85-257DB | - | 80 µM |
| Nc1ccn([C@@H]2O[C@H](CO)[C@@H](O)[C@H]2O)c(=S)n1 | RPMI8226 | - | >386 µM |
| Nc1nc2c(ncn2COC2COP(=O)(O)OC2)c(=O)[nH]1 | GPE | - | 330 µg/mL |
| Nc1ncnc2c1ncn2C1C[C@H]2C[C@@H]1[C@@H]1CSC[C@H]21 | Huh | - | >348 µM |
| [N-]=[N+]=N[C@]1(CO)O[C@@H](n2ccc(NC3CC3)nc2=O)[C@@H](F)[C@@H]1O | Hep2.2.15 | MTT | 391 µM |
| COc1ccc(F)cc1CNCCCNc1ccnc2cc(Oc3ccc(C(C)(C)C)cc3)ccc12 | HepG2 | fluorescence | 7.2 µM |
| [N-]=[N+]=N[C@]1(CO)O[C@@H](n2ccc(NCCO)nc2=O)[C@@H](F)[C@@H]1O | Hep2.2.15 | MTT | <2 µM |
| OCCCNc1nc(NCCCCNc2ccnc3cc(Cl)ccc23)nc(N2CCCCC2)n1 | LLC-Pk11 | - | 27.4 µM |